Results of unrelated studies side by side (data: NIAID ChemDB).

Common to all: enzyme or target tests; species: HIV-1; target: Reverse transcriptase

ICn is the concentration giving n% inhibition. Neighbouring rows are from separate reports. a–b is a range or a potency band. Fold resistance: result on the changed form divided by that on wild type. An empty or dashed field is not shown.

{"smiles": "CCN1c2ncc(CCOc3ccc(C(=O)NN)cc3C)cc2C(=O)N(C)c2cccnc21", "strain": "IIIB", "read by": "nucleotide incorporation / radiometric", "read-out": "IC50", "result": "<0.05 µM"}
{"smiles": "Cc1ccc(-c2nnsc2SCC(=O)Nc2ccc(-c3ccc(CC(=O)O)cc3)cc2Cl)c(Cl)c1", "mutations": "RT-K103 Y181C", "read by": "PicoGreen / fluorescence", "read-out": "IC50", "result": "<1 µM"}
{"smiles": "O=[N+]([O-])c1ccc2c(c1)CN(c1nn3c(C(F)F)nnc3c3ccccc13)CC2", "strain": "IIIB", "read by": "RT activity / fluorescence", "read-out": "IC90", "result": "15.4 µM"}
{"smiles": "CCN1c2ncc(CCOc3ccc(S(=O)(=O)c4ccc(C(=O)O)cc4)cc3C)cc2C(=O)N(C)c2cccnc21", "strain": "IIIB", "mutations": "RT-K103N Y181C", "read by": "nucleotide incorporation / radiometric", "read-out": "fold resistance", "result": "1"}
{"smiles": "CCN1c2ncc(CCOc3ccc(CC(=O)O)c4ccccc34)cc2C(=O)N(C)c2cccnc21", "mutations": "RT-K103N Y181C", "read by": "nucleotide incorporation / radiometric", "read-out": "IC50", "result": "0.1–1 µM"}
{"smiles": "CC(C)(C)c1ccc(-n2nnnc2SCC(=O)Nc2ccc(C(=O)Nc3ccncc3)cc2Cl)c(Cl)c1", "mutations": "RT-K103 Y181C", "read by": "PicoGreen / fluorescence", "read-out": "IC50", "result": "<1 µM"}
{"smiles": "CCN1c2ncc(CCOc3ccc(-c4cccc(CC(=O)O)c4)cc3C)cc2C(=O)N(C)c2cccnc21", "strain": "IIIB", "read by": "nucleotide incorporation / radiometric", "read-out": "IC50", "result": "<0.05 µM"}
{"smiles": "CC(C)(C#Cc1ccc(NC(=O)CSc2nnnn2-c2ccc(C(C)(C)C)cc2Cl)c(Cl)c1)C(=O)O", "mutations": "RT-K103 Y181C", "read by": "PicoGreen / fluorescence", "read-out": "IC50", "result": "<1 µM"}
{"smiles": "NCCCCNc1nc(Cc2ccccc2)cc(=O)[nH]1", "mutations": "RT-K103N", "read-out": "Ki", "result": ">1000 µM"}
{"smiles": "COc1ccc2c(c1)CCN(c1nn3c(C4CC4)nnc3c3ccccc13)C2", "strain": "98US_MSC5016", "read by": "RT activity / fluorescence", "read-out": "IC90", "result": "3.28 µM"}
{"smiles": "CC(C)(C)c1ccc(-n2nnnc2SCC(=O)Nc2ccc(NC(=O)Cc3ccc[n+]([O-])c3)cc2Cl)c(Cl)c1", "strain": "WT", "read by": "PicoGreen / fluorescence", "read-out": "IC50", "result": "<1 µM"}
{"smiles": "O=c1cc(Cc2ccccc2)nc(SCCCCO)[nH]1", "mutations": "RT-Y188L", "read-out": "Ki", "result": "207 µM"}
{"smiles": "Cc1ccc(-n2nnnc2SCC(=O)Nc2ccc(-c3ccc(C(=O)O)cc3)cc2Cl)c(Cl)c1", "strain": "WT", "read by": "PicoGreen / fluorescence", "read-out": "IC50", "result": "<1 µM"}
{"smiles": "CCN1c2ncc(CCOc3ccc(-c4ccc(CC(=O)O)cc4F)cc3C)cc2C(=O)N(C)c2cccnc21", "strain": "IIIB", "mutations": "RT-K103N Y181C", "read by": "nucleotide incorporation / radiometric", "read-out": "IC50", "result": "<0.05 µM"}
{"smiles": "c1coc(-c2nnc3c4ccccc4c(N4CCc5ccccc5C4)nn23)c1", "strain": "KER2008", "read by": "RT activity / fluorescence", "read-out": "IC90", "result": "0.92 µM"}
{"smiles": "CCN1c2ncc(CCOc3ccc(-c4cc[n+]([O-])cc4)cc3C)cc2C(=O)N(C)c2cccnc21", "strain": "IIIB", "read by": "nucleotide incorporation / radiometric", "read-out": "IC50", "result": "<0.05 µM"}
{"smiles": "CCN1c2ncc(CCOc3ccc(C(=O)O)c4c3CCCC4)cc2C(=O)N(C)c2ccc(F)nc21", "mutations": "RT-V106A", "read by": "nucleotide incorporation / radiometric", "read-out": "fold resistance", "result": ">10"}
{"smiles": "CC(C)(N)C#Cc1ccc(NC(=O)CSc2nnnn2-c2cc(C(F)(F)F)ccc2Cl)c(Cl)c1F", "mutations": "RT-K103 Y181C", "read by": "PicoGreen / fluorescence", "read-out": "IC50", "result": "<1 µM"}
{"smiles": "CCN1c2ncc(CCOc3ccc(/C=C/C(=O)O)c4ccccc34)cc2C(=O)Nc2c(C)ccnc21", "mutations": "RT-K103N Y181C", "read by": "nucleotide incorporation / radiometric", "read-out": "fold resistance", "result": "1–10"}
{"smiles": "CC(=O)NC(C(=O)Nc1ccc(NC(=O)CSc2nnnn2-c2ccc(C(C)(C)C)cc2Cl)c(Cl)c1)c1ccccc1", "strain": "WT", "read by": "PicoGreen / fluorescence", "read-out": "IC50", "result": "<1 µM"}
{"smiles": "CCc1cc(CCc2nc3ccccc3o2)c(=O)[nH]c1C", "mutations": "RT-Y181C", "read by": "nucleotide incorporation", "read-out": "fold resistance", "result": "223.7"}
{"smiles": "O=C(CSc1nnnn1-c1ccc(C2CC2)cc1Cl)Nc1ccc(-c2ccc(OCCN3CCCCC3)c(Cl)c2)cc1Cl", "mutations": "RT-K103 Y181C", "read by": "PicoGreen / fluorescence", "read-out": "IC50", "result": "<1 µM"}
{"smiles": "CCN1c2ncc(CCOc3ccc(NS(=O)(=O)C(F)(F)F)c4ccccc34)cc2C(=O)N(C)c2ccc(F)nc21", "strain": "WT", "read by": "nucleotide incorporation / radiometric", "read-out": "IC50", "result": "<0.1 µM"}
{"smiles": "CCN1c2ncc(CCOc3ccc(C(=O)N=c4ccccn4O)cc3C)cc2C(=O)N(C)c2cccnc21", "strain": "IIIB", "read by": "nucleotide incorporation / radiometric", "read-out": "IC50", "result": "<0.05 µM"}
{"smiles": "O=[N+]([O-])c1ccc2c(c1)CN(c1nn3c(C4CC4)nnc3c3ccccc13)CC2", "strain": "98US_MSC5016", "read by": "RT activity / fluorescence", "read-out": "IC90", "result": "20.3 µM"}
{"smiles": "CC(C)(C)c1ccc(-n2nnnc2SCC(=O)Nc2ccc(NC(=O)Cc3ccncc3)cc2Cl)c(Cl)c1", "strain": "WT", "read by": "PicoGreen / fluorescence", "read-out": "IC50", "result": "<1 µM"}
{"smiles": "CCN1c2ncc(CCOc3ccc(-c4ccc(C(=O)O)cc4)c(C)c3)cc2C(=O)N(C)c2cccnc21", "strain": "IIIB", "mutations": "RT-K103N Y181C", "read by": "nucleotide incorporation / radiometric", "read-out": "IC50", "result": ">0.1 µM"}
{"smiles": "CCN(CC)CCOc1ccc(-c2ccc(NC(=O)CSc3nnnn3-c3ccc(C(C)(C)C)cc3Cl)c(Cl)c2)cc1", "mutations": "RT-K103 Y181C", "read by": "PicoGreen / fluorescence", "read-out": "IC50", "result": "<1 µM"}
{"smiles": "CCN1c2ncc(CCOc3ccc(-c4cc(C(=O)O)ccc4C)cc3C)cc2C(=O)N(C)c2cccnc21", "strain": "IIIB", "mutations": "RT-K103N Y181C", "read by": "nucleotide incorporation / radiometric", "read-out": "fold resistance", "result": ">2"}
{"smiles": "Cc1cc(C#CC(C)(C)NC(=O)c2cc[n+]([O-])cc2)ccc1NC(=O)CSc1nnnn1-c1ccc(C2CC2)cc1Cl", "strain": "WT", "read by": "PicoGreen / fluorescence", "read-out": "IC50", "result": "<1 µM"}
{"smiles": "Oc1ccc2c(c1)CN(c1nn3c(C4CC4)nnc3c3ccccc13)CC2", "strain": "IIIB", "read by": "RT activity / fluorescence", "read-out": "IC90", "result": "2.7 µM"}
{"smiles": "O=c1cc(Cc2ccccc2)nc(NCCCCO)[nH]1", "mutations": "RT-Y181L", "read-out": "Ki", "result": ">1000 µM"}
{"smiles": "CC(=O)Nc1ccc2c(c1)CN(c1nn3c(C4CC4)nnc3c3ccccc13)CC2", "strain": "IIIB", "read by": "RT activity / fluorescence", "read-out": "IC90", "result": "0.3 µM"}
{"smiles": "CCN1c2ncc(CCOc3ccc(CC(C)C(=O)O)c4ccccc34)cc2C(=O)N(C)c2ccc(C)nc21", "mutations": "RT-K103N Y181C", "read by": "nucleotide incorporation / radiometric", "read-out": "fold resistance", "result": "1–10"}

Repeating the final 3 entries:

smiles	strain	mutations	read by	read-out	result
O=c1cc(Cc2ccccc2)nc(NCCCCO)[nH]1		RT-Y181L		Ki	>1000 µM
CC(=O)Nc1ccc2c(c1)CN(c1nn3c(C4CC4)nnc3c3ccccc13)CC2	IIIB		RT activity / fluorescence	IC90	0.3 µM
CCN1c2ncc(CCOc3ccc(CC(C)C(=O)O)c4ccccc34)cc2C(=O)N(C)c2ccc(C)nc21		RT-K103N Y181C	nucleotide incorporation / radiometric	fold resistance	1–10